Results of unrelated studies side by side (data: NIAID ChemDB).

Common to all: host cell toxicity; measure: CC50

Blank or dashed fields: not listed here.

smiles	read by	cells	result
CC(C)N(Cc1ccccc1OCC(=O)O)C(=O)c1ccc(-c2ccc3c(c2)OCO3)cc1	-	BJ	>20 µM
CSc1nsc(SC)c1C#N	-	HEP-2	12 µM
C[C@H](C[C@H](OC(=O)C1CCCC1)[C@@H](OC(=O)C1CCCC1)C(C)(C)O)C1=C2C[C@H](OC(=O)C3CCCC3)[C@H]3[C@@]4(C)CCC(=O)C(C)(C)[C@@H]4CC[C@]3(C)[C@@]2(C)CC1	-	HepG2.2.15	>1100 µM
COc1ccc(CCn2c(N)c(-c3nc4ccccc4[nH]3)c3nc(C#N)c(C#N)nc32)cc1OC	resazurin / fluorescence	L6 rat skeletal myoblasts	148 µM
CC(=O)OCC(=O)O[C@@H](C[C@@H](C)[C@]12CC[C@@]3(C)[C@@]1(C[C@H](OC(=O)COC(C)=O)[C@H]1[C@@]4(C)CCC(=O)C(C)(C)[C@@H]4CC[C@@]13C)O2)[C@@H](OC(=O)COC(C)=O)C(C)(C)O	-	HepG2.2.15	250 µM
CCOc1ccccc1N1CCN(CC(O)COc2ccc3c(c2C(C)C)CCC2C(C)(C)CCC[C@]32C)CC1	MTT	CHO	183 µM
CCOC(=O)C1=C(CN2CC(F)(F)[C@H]3[C@@H]2CCN3C[C@@H](F)C(C)(C)C(=O)O)NC(c2nc(C)cs2)=N[C@H]1c1cccc(F)c1C	WST / absorbance	HepG2.2.15	20.8 µM
C[C@H](C[C@H](OC(=O)Cc1ccc([N+](=O)[O-])cc1)[C@@H](OC(=O)Cc1ccc([N+](=O)[O-])cc1)C(C)(C)O)C1=C2C[C@H](OC(=O)Cc3ccc([N+](=O)[O-])cc3)[C@H]3[C@@]4(C)CCC(=O)C(C)(C)[C@@H]4CC[C@]3(C)[C@@]2(C)CC1	-	HepG2.2.15	>1000 µM
CC(C)c1c(OCC(O)CN2CCN(c3ccccc3Cl)CC2)ccc2c1CCC1C(C)(C)CCC[C@]21C	MTT	CHO	186 µM
CSc1nsc(-c2ccccn2)c1C#N	-	L929	50 µM
CC(C)c1c(OCC(O)CN2CCN(c3ccccc3)CC2)ccc2c1CCC1C(C)(C)CCC[C@]21C	MTT	CHO	105 µM
CCOC(=O)C1=C(CN2CC(F)(F)[C@H]3[C@@H]2CCN3C[C@](C)(O)C(=O)O)NC(c2nc(C)cs2)=N[C@H]1c1cccc(F)c1C	WST / absorbance	HepG2.2.15	>50 µM
CCOC(=O)CCCCCOc1cccc(CN(C(=O)c2ccc(-c3cc(F)cc(OC)c3)cc2)C(C)C)c1	-	BJ	>20 µM
CSc1nsc(-c2ccc(Cl)cc2Cl)c1C#N	-	HEP-2	8 µM
C/C=C/C=C/C(=O)O[C@@H](C[C@@H](C)C1=C2C[C@H](OC(=O)/C=C/C=C/C)[C@H]3[C@@]4(C)CCC(=O)C(C)(C)[C@@H]4CC[C@]3(C)[C@@]2(C)CC1)[C@@H](OC(=O)/C=C/C=C/C)C(C)(C)O	-	HepG2.2.15	>900 µM
CC1=CC2C(=O)c3cc(OC/C(=N/NC(N)=O)c4ccccc4)cc(O)c3C(=O)C2C(O)=C1	-	K562 erythroleukemia cells	100 µM
COC(=O)C1=CO[C@@H]2OC[C@]3(O)C=C[C@H]1[C@H]23	resazurin	L6 rat skeletal myoblasts	57.8 µg/mL
CC(C)N(Cc1cccc(OCCCCCC(=O)OC(=O)O)c1)C(=O)c1ccc(-c2cccc(OC(F)(F)F)c2)cc1	-	HEK 293	>20 µM
CCCCC(=O)O[C@@H](C[C@@H](C)C1=C2C[C@H](OC(=O)CCCC)[C@H]3[C@@]4(C)CCC(=O)C(C)(C)[C@@H]4CC[C@]3(C)[C@@]2(C)CC1)[C@@H](OC(=O)CCCC)C(C)(C)O	-	HepG2.2.15	>1300 µM
Cc1nsc(C)c1C#N	-	HEP-2	1000 µM
CC(C)N(Cc1cccc(OCCCCCC(=O)OC(=O)O)c1)C(=O)c1ccc(-c2cccc(-c3ccccc3)c2)cc1	-	BJ	>20 µM
COC(=O)C1=C(CN2CC(F)(F)[C@@H]3[C@H]2CON3C[C@H](O)C(C)(C)C(=O)O)NC(c2nccs2)=N[C@H]1c1ccc(F)cc1Cl	WST / absorbance	HepG2.2.15	>100 µM
C[C@H](C[C@H](OC(=O)CN1C(=O)c2ccccc2C1=O)[C@@H](OC(=O)CN1C(=O)c2ccccc2C1=O)C(C)(C)O)C1=C2C[C@H](OC(=O)CN3C(=O)c4ccccc4C3=O)[C@H]3[C@@]4(C)CCC(=O)C(C)(C)[C@@H]4CC[C@]3(C)[C@@]2(C)CC1	-	HepG2.2.15	>1500 µM
N=C(N)c1ccc(OCc2cccc(COc3ccc(C(=N)N)cc3)c2)cc1	absorbance	3T3	>100 µM
N#Cc1nc2c(-c3nc4ccccc4[nH]3)c(N)n(CCc3ccc(Cl)cc3)c2nc1C#N	resazurin / fluorescence	L6 rat skeletal myoblasts	40 µM
CC1=CC2C(=O)c3cc(OC/C(C)=N/O)cc(O)c3C(=O)C2C(O)=C1	-	K562 erythroleukemia cells	33 µM
O=c1[nH]c(=O)n([C@@H]2O[C@H](CO)[C@@H](O)[C@@H]2O)cc1/C=C/Cl	-	HELF	>800 µg/mL
CCOC(=O)C1=C(CN2CC(F)(F)[C@@H]3[C@H]2CON3C[C@H](OC)C(C)(C)C(=O)O)NC(c2nc(C)cs2)=N[C@H]1c1cccc(F)c1C	WST / absorbance	HepG2.2.15	>50 µM
C[C@H](C[C@H](OC(=O)/C=C/c1ccccc1Cl)[C@@H](OC(=O)/C=C/c1ccccc1Cl)C(C)(C)O)C1=C2C[C@H](OC(=O)/C=C/c3ccccc3Cl)[C@H]3[C@@]4(C)CCC(=O)C(C)(C)[C@@H]4CC[C@]3(C)[C@@]2(C)CC1	-	HepG2.2.15	>1300 µM
CCOC(=O)C1=C(CN2CC(F)(F)[C@@H]3[C@H]2CON3C[C@H](OC)C(C)(C)C(=O)O)NC(c2nccs2)=N[C@H]1c1ccc(F)c(F)c1Cl	WST / absorbance	HepG2.2.15	74.7 µM
N#Cc1nc2c(-c3nc4ccccc4[nH]3)c(N)n(CCc3ccc(S(N)(=O)=O)cc3)c2nc1C#N	resazurin / fluorescence	L6 rat skeletal myoblasts	>100 µM
CC(C)c1c(OCC(O)CN2CCN(c3ccnc4cc(Cl)ccc34)CC2)ccc2c1CCC1C(C)(C)CCC[C@]21C	MTT	CHO	94.19 µM
O=c1[nH]c(=O)n([C@@H]2O[C@H](CO)[C@@H](O)[C@@H]2O)cc1/C=C/I	-	HELF	>800 µg/mL
CCOC(=O)CCCCCOc1cccc(CN(C(=O)c2ccc(-c3ccc(C(C)=O)s3)cc2)C(C)C)c1	-	HEK 293	>20 µM
N#Cc1nc2c(-c3nc4ccccc4[nH]3)c(N)n(CCc3ccccc3F)c2nc1C#N	resazurin / fluorescence	L6 rat skeletal myoblasts	80 µM
CCc1cn([C@H]2C[C@H](O)[C@@H](CO)O2)c(=O)[nH]c1=O	-	HELF	40 µg/mL
CC(C)c1c(OCC(O)CN2CCN(C)CC2)ccc2c1CCC1C(C)(C)CCC[C@]21C	MTT	CHO	3.73 µM
CC(=O)OCC(=O)O[C@@H](C[C@@H](C)C1=C2C[C@H](OC(=O)COC(C)=O)[C@H]3[C@@]4(C)CCC(=O)C(C)(C)[C@@H]4CC[C@]3(C)[C@@]2(C)CC1)[C@@H](OC(=O)COC(C)=O)C(C)(C)O	-	HepG2.2.15	51 µM
CC(C)NCC(O)COc1cccc2ccccc12	MTT	CHO	>300 µM
Cc1cn([C@@H]2O[C@H](CO)[C@@H](O)[C@@H]2O)c(=O)[nH]c1=O	-	HELF	100 µg/mL
CCOC(=O)C1=C(CN2CC(F)(F)[C@@H]3[C@H]2CON3C[C@@](C)(O)C(=O)O)NC(c2nccs2)=N[C@H]1c1cccc(F)c1C	WST / absorbance	HepG2.2.15	>50 µM
CC(C)NCC(O)COc1ccc2c(c1C(C)C)CCC1C(C)(C)CCC[C@]21C	MTT	CHO	1.28 µM
CCOC(=O)C1=C(CN2CC(F)(F)[C@@H]3[C@H]2CON3CC(O)(CC)C(=O)O)NC(c2nccs2)=N[C@H]1c1cccc(F)c1C	WST / absorbance	HepG2.2.15	>100 µM
O=c1[nH]c(=O)n([C@H]2C[C@H](O)[C@@H](CO)O2)cc1I	-	HELF	8 µg/mL
CSc1nsc(-c2ccccc2)c1C#N	-	L929	20 µM
COC(=O)C1=C(CN2CC(F)(F)[C@@H]3[C@H]2CON3C[C@H](OC)C(C)(C)C(=O)O)NC(c2nccs2)=N[C@H]1c1ccc(F)c(F)c1F	WST / absorbance	HepG2.2.15	>100 µM
CCOC(=O)CCCCCOc1cccc(CN(C(=O)c2ccc(-c3cccc(OC(F)(F)F)c3)cc2)C(C)C)c1	-	BJ	>20 µM
CCOC(=O)C1=C(CN2CC(F)(F)[C@@H]3[C@H]2CON3C[C@@H](OCC)C(C)(C)C(=O)O)NC(c2nccs2)=N[C@H]1c1cccc(F)c1C	WST / absorbance	HepG2.2.15	48 µM
CC(C)N(Cc1cccc(OCCCCCC(=O)OC(=O)O)c1)C(=O)c1ccc(-c2cccc(Br)c2)cc1	-	HepG2	>20 µM
OC(CNCc1ccccc1)COc1ccc2ccccc2c1	MTT	CHO	123.4 µM

Repeating the first 7 entries:

smiles | read by | cells | result
CC(C)N(Cc1ccccc1OCC(=O)O)C(=O)c1ccc(-c2ccc3c(c2)OCO3)cc1 | - | BJ | >20 µM
CSc1nsc(SC)c1C#N | - | HEP-2 | 12 µM
C[C@H](C[C@H](OC(=O)C1CCCC1)[C@@H](OC(=O)C1CCCC1)C(C)(C)O)C1=C2C[C@H](OC(=O)C3CCCC3)[C@H]3[C@@]4(C)CCC(=O)C(C)(C)[C@@H]4CC[C@]3(C)[C@@]2(C)CC1 | - | HepG2.2.15 | >1100 µM
COc1ccc(CCn2c(N)c(-c3nc4ccccc4[nH]3)c3nc(C#N)c(C#N)nc32)cc1OC | resazurin / fluorescence | L6 rat skeletal myoblasts | 148 µM
CC(=O)OCC(=O)O[C@@H](C[C@@H](C)[C@]12CC[C@@]3(C)[C@@]1(C[C@H](OC(=O)COC(C)=O)[C@H]1[C@@]4(C)CCC(=O)C(C)(C)[C@@H]4CC[C@@]13C)O2)[C@@H](OC(=O)COC(C)=O)C(C)(C)O | - | HepG2.2.15 | 250 µM
CCOc1ccccc1N1CCN(CC(O)COc2ccc3c(c2C(C)C)CCC2C(C)(C)CCC[C@]32C)CC1 | MTT | CHO | 183 µM
CCOC(=O)C1=C(CN2CC(F)(F)[C@H]3[C@@H]2CCN3C[C@@H](F)C(C)(C)C(=O)O)NC(c2nc(C)cs2)=N[C@H]1c1cccc(F)c1C | WST / absorbance | HepG2.2.15 | 20.8 µM

Lines come from different laboratories, so protocols vary. CCn is the concentration with n% toxicity to the cells.